Results of unrelated studies side by side (data: NIAID ChemDB).

All rows: host cell toxicity; cell line: MT-4; read-out: CC50

CCn is the concentration with n% toxicity to the cells.

smiles	method	value
CC[C@@H]1C=CC[C@H](n2cnc3c(N)ncnc32)O1		>100 µM
CCN1C[C@@]2(CC[C@H](C)N3C[C@H]2n2cc(C(=O)NCc4c(F)cc(F)cc4F)c(=O)c(O)c2C3=O)OC1=O	luminescence	50 µM
Cc1ccc(/C=C(\C(N)=O)n2nc3ccccc3n2)cc1		7 µM
COC(=O)[C@H](C)NP(=O)(C[C@H]1O[C@@H](n2cc(C)c(=O)[nH]c2=O)C[C@@H]1N=[N+]=[N-])O[C@H]1C[C@H](n2cc(C)c(=O)[nH]c2=O)O[C@@H]1CO		180 µg/mL
COC(=O)c1cn([C@@H]2O[C@H](CO)[C@@H](O)[C@H]2O)c2cc(F)ccc2c1=O	MTT	31–125 µg/mL
Nc1ncnc2c1ccn2[C@H]1CC[C@@H](CO)C1	MTS	>500 µM
C[C@H]1CC[C@]2(CC(=O)N(Cc3ccc4ccccc4c3)O2)[C@H]2CN1C(=O)c1c(O)c(=O)c(C(=O)NCc3c(F)cc(F)cc3F)cn12	luminescence	50 µM
Nn1c(-c2ccc(O)c(Br)c2)n[nH]c1=S	MTT	75.4 µg/mL
N#Cc1cc(Cl)cc(Oc2cc(OCc3[nH]nc4nc(N5CCOCC5)ccc34)ccc2Cl)c1	microscopy	>20 µM
Cc1cn([C@H]2C[C@H](F)[C@@H](CN)O2)c(=O)[nH]c1=O		>500 µM
C[C@H]1CC[C@]2(CC(=O)NO2)[C@H]2CN1C(=O)c1c(O)c(=O)c(C(=O)NCc3c(F)cc(F)cc3F)cn12	luminescence	50 µM
CSCCC(NS(=O)(=O)c1ccc(Cl)cc1)c1nnc(SCc2ccc(Cl)cc2)o1		11.88 µg/mL
CC(C)c1c(Cc2ccccc2)n(CCCCCC(N)=O)c(=O)[nH]c1=O		>100 µM
CSCO[C@H]1C[C@H](n2cc(C)c(=O)[nH]c2=O)O[C@@H]1CO		>500 µM
CC(=O)OC[C@H]1O[C@@H](n2c(-c3ccc(N)cc3)cc(-c3ccco3)c(C#N)c2=O)[C@H](OC(C)=O)[C@@H](OC(C)=O)[C@@H]1OC(C)=O	XTT	>11.8 µM
Oc1ccc(-c2nnc3sc(-c4ccc(O)c(Cl)c4Cl)nn23)cc1Br	MTT	4.12 µg/mL
C=CS(=O)(=O)N1CCCC(NS(=O)(=O)c2c(C(N)=O)[nH]c3ccc(Br)cc23)C1	MTT	40.7 µM
[2H]C([2H])([15NH]C(=O)c1cn2c(c(O)c1=O)C(=O)N1C[C@@H]2[C@]2(CC[C@@H]1C)CC(C)=NO2)c1ccc(F)cc1F	luminescence	13.8 µM
COc1cccc(/C=C(\C#N)n2nnc3ccccc32)c1		4.7 µM
Nc1ccc(-c2nn3c(-c4ccc(Cl)c(Cl)c4)nnc3s2)cc1		19.61 µg/mL
Nc1nc(=O)n([C@H]2C=C[C@@H](CO)O2)cc1Cl		185 µM
C[C@H]1CC[C@]2(CC(=O)N(Cc3ccc(C#N)cc3)O2)[C@H]2CN1C(=O)c1c(O)c(=O)c(C(=O)NCc3c(F)cc(F)cc3F)cn12	luminescence	50 µM
Nc1ncnc2c1ccn2[C@H]1C=C[C@@H](CO)C1	MTS	>500 µM
Nc1nc(N)c2ncn([C@H]3C[C@H](F)[C@@H](CO)O3)c2n1		360 µM
O=c1nc(NO)ccn1[C@@H]1O[C@H](CO)C=C1Cl		>500 µM
Cc1cn([C@H]2C=CC[C@@H](CO)O2)c(=O)[nH]c1=O		>100 µM
N#Cc1cc(Cl)cc(Oc2cc(Cl)cc(OCC(=O)Nc3ccc4nc[nH]c4c3)c2)c1	microscopy	>20 µM
CC(C)OC(=O)[C@H](C)NP(=O)(OC[C@H]1C=C[C@@H](n2cnc3c(N)ncnc32)C1)Oc1ccccc1	MTS	100 µM
CCOCn1c(C(=O)c2cccc(C#N)c2)c(CC)c(OC)nc1=O		>100 µM
Cc1cn([C@H]2CC=C[C@@H](CO)O2)c(=O)[nH]c1=O		>100 µM
Nc1cc(O)ccc1-c1nn2c(-c3ccc(O)c(Cl)c3Cl)nnc2s1	MTT	19.61 µg/mL
CC(=O)OC[C@H]1O[C@@H](n2c(-c3ccccc3)cc(-c3ccco3)c(C#N)c2=O)[C@H](OC(C)=O)[C@@H](OC(C)=O)[C@@H]1OC(C)=O	XTT	>16.8 µM
CN(CC(N)=O)c1ccc2c(COc3ccc(Cl)c(Oc4cc(Cl)cc(C#N)c4)c3)[nH]nc2n1	microscopy	>20 µM
N#C/C(=C\c1cc(F)cc(F)c1)n1nnc2ccccc21		2 µM
COC(=O)c1ccc(Nc2ccc(OC)c3ccccc23)cc1	MTT	1.07 µM
CCCOCn1c(C(F)c2cccc(C#N)c2)c(CC)c(=O)[nH]c1=O		>100 µM
Nc1ccn([C@@H]2CC=C[C@@H](CO)O2)c(=O)n1		>100 µM
Nc1nc2c(ncn2[C@H]2C[C@@H](F)[C@@H](CO)O2)c(=O)[nH]1		>500 µM
N#C/C(=C\c1cccc(Cl)c1Cl)n1nnc2ccccc21		4 µM
N#Cc1cc(Cl)cc(Oc2cc(Cl)cc(OCc3nc4ccccc4s3)c2)c1	microscopy	>20 µM
CC(C)c1c(Cc2ccccc2)n(CC(N)=O)c(=O)[nH]c1=O		>100 µM
COc1ccc(-c2cc(-c3ccco3)c(C#N)c(=O)n2[C@@H]2O[C@H](COC(C)=O)[C@@H](OC(C)=O)[C@H](OC(C)=O)[C@H]2OC(C)=O)cc1	XTT	>11.6 µM
N#Cc1cc(Cl)cc(Oc2cc(Cl)cc(OCc3[nH]nc4ccccc34)c2)c1	microscopy	>20 µM
CSCCC(NS(=O)(=O)c1ccc(Cl)cc1)c1nnc(SCc2ccc(F)cc2)o1		13.65 µg/mL
CC(C)c1c(Cc2ccccc2)n(CCCC(N)=O)c(=O)[nH]c1=O		>100 µM
O=c1[nH]c(=O)n([C@H]2C=C[C@@H](CO)O2)cc1Cl		45 µM
COC(=O)c1cn([C@@H]2O[C@H](CO)[C@@H](O)[C@H]2O)c2c(F)cccc2c1=O	MTT	31–125 µg/mL
CCc1cc(CCc2nc3ccccc3o2)c(=O)[nH]c1C		>0.06 µM
O=C(O)CN(CCCN(CCN(CC(=O)O)CC(=O)O)Cc1cnc2c(O)cccc2c1)CC(=O)O	MTT	>50 µM
Nn1c(-c2ccc(O)c(Cl)c2Cl)n[nH]c1=S	MTT	72.83 µg/mL
N#C/C(=C\c1ccc(F)c(F)c1)n1nnc2ccccc21		2.5 µM
CCOC(=O)CCCn1c(Cc2ccccc2)c(C(C)C)c(=O)[nH]c1=O		>65 µM
CCOCn1c(C(=O)c2cccc(C#N)c2)c(CC)c(=O)[nH]c1=O		>100 µM
CNc1ccn([C@@H]2O[C@H](CO)C=C2Cl)c(=O)n1		>500 µM
CCOC(=O)CCCCn1c(Cc2ccccc2)c(C(C)C)c(=O)[nH]c1=O		>100 µM
CC(NS(=O)(=O)c1ccc(Cl)cc1)c1nnc(SCc2ccc(F)cc2)o1		58.75 µg/mL
CC(=O)OC[C@H]1O[C@@H](n2c(-c3ccc(C)cc3)cc(-c3ccco3)c(C#N)c2=O)[C@H](OC(C)=O)[C@@H](OC(C)=O)[C@@H]1OC(C)=O	XTT	>8.6 µM
COC1=NS[C@]2(CC[C@H](C)N3C[C@H]2n2cc(C(=O)NCc4ccc(F)cc4F)c(=O)c(O)c2C3=O)C1	luminescence	50 µM
O=C1CSc2nnc(-c3ccc(Cl)c(Cl)c3)n2N1		35.23 µg/mL
NS(=O)(=O)c1ccc(NC(=O)COc2cccc(Oc3ccccc3)c2)c(Cl)c1	microscopy	>20 µM
CC(=O)OC[C@H]1O[C@@H](n2c(-c3ccc(N)cc3)cc(-c3ccccc3)c(C#N)c2=O)[C@H](OC(C)=O)[C@@H](OC(C)=O)[C@@H]1OC(C)=O	XTT	>11.6 µM
O=c1ccn([C@@H]2O[C@H](CO)C=C2Cl)c(=O)[nH]1		>500 µM
COC1=NO[C@@]2(CC[C@@H](C)N3C[C@H]2n2cc(C(=O)NCc4c(F)cc(F)cc4F)c(=O)c(O)c2C3=O)C1	luminescence	13.4 µM
CC(NS(=O)(=O)c1ccc(Cl)cc1)c1nnc(SCc2ccc(Br)cc2)o1		>12.33 µg/mL
Nc1ncnc2c1ccn2[C@@H]1CC[C@H](CO)C1	MTS	255 µM
Nc1nc2c(ncn2[C@@H]2O[C@H](CO)[C@@H](F)[C@H]2O)c(=O)[nH]1		526 µM
CC(NS(=O)(=O)c1ccc(Cl)cc1)c1nnc(SCc2ccc(Cl)cc2)o1		14.08 µg/mL
COC(=O)c1cn([C@@H]2O[C@H](CO)[C@@H](O)[C@H]2O)c2ccc(F)cc2c1=O	MTT	31–125 µg/mL
Nn1c(-c2ccc(Cl)c(Cl)c2)n[nH]c1=S		72.83 µg/mL
Cc1ccc(S(=O)(=O)NC(Cc2ccccc2)c2nnc(SCc3ccc(Br)cc3)o2)cc1		82.1 µg/mL
CCNC(=NCCCN(C)C)N[C@@H]1[C@H](O)[C@@H](O[C@H]2/C=C/C=C/C=C/C=C/C=C/C=C/C=C/[C@H](C)[C@@H](O)[C@@H](C)[C@H](C)OC(=O)CC(O)CC(O)CC(O)CCC(O)C(O)C[C@]3(O)CC(O)C(C(=O)O)C(C2)O3)O[C@H](C)[C@@H]1O		>100 µg/mL
N#Cc1c(-c2ccccc2)cc(-c2ccccc2)n([C@@H]2O[C@H](CO)[C@H](O)[C@H](O)[C@H]2O)c1=O	XTT	>59.9 µM
CC1=NO[C@@]2(CC[C@H](C)N3C[C@H]2n2cc(C(=O)NCc4ccc(F)cc4F)c(=O)c(O)c2C3=O)C1=O	luminescence	50 µM
N#C/C(=C\c1ccc(C(F)(F)F)cc1C(F)(F)F)n1nnc2ccccc21		11 µM
Clc1ccc(-c2nnc3sc(-c4cccnc4)nn23)cc1Cl		80.05 µg/mL
COC1CN(c2ccc3c(COc4ccc(Cl)c(Oc5cc(Cl)cc(C#N)c5)c4)[nH]nc3n2)C1	microscopy	>20 µM

A second listing of 11 rows from above:

smiles,method,value
Nc1ncnc2c1ccn2[C@H]1C=C[C@@H](CO)C1,MTS,>500 µM
Cc1ccc(S(=O)(=O)NC(Cc2ccccc2)c2nnc(SCc3ccc(Br)cc3)o2)cc1,,82.1 µg/mL
N#C/C(=C\c1ccc(C(F)(F)F)cc1C(F)(F)F)n1nnc2ccccc21,,11 µM
CCN1C[C@@]2(CC[C@H](C)N3C[C@H]2n2cc(C(=O)NCc4c(F)cc(F)cc4F)c(=O)c(O)c2C3=O)OC1=O,luminescence,50 µM
Nn1c(-c2ccc(Cl)c(Cl)c2)n[nH]c1=S,,72.83 µg/mL
COC(=O)c1cn([C@@H]2O[C@H](CO)[C@@H](O)[C@H]2O)c2ccc(F)cc2c1=O,MTT,31–125 µg/mL
N#Cc1c(-c2ccccc2)cc(-c2ccccc2)n([C@@H]2O[C@H](CO)[C@H](O)[C@H](O)[C@H]2O)c1=O,XTT,>59.9 µM
COc1ccc(-c2cc(-c3ccco3)c(C#N)c(=O)n2[C@@H]2O[C@H](COC(C)=O)[C@@H](OC(C)=O)[C@H](OC(C)=O)[C@H]2OC(C)=O)cc1,XTT,>11.6 µM
CC(=O)OC[C@H]1O[C@@H](n2c(-c3ccc(N)cc3)cc(-c3ccccc3)c(C#N)c2=O)[C@H](OC(C)=O)[C@@H](OC(C)=O)[C@@H]1OC(C)=O,XTT,>11.6 µM
CCOCn1c(C(=O)c2cccc(C#N)c2)c(CC)c(=O)[nH]c1=O,,>100 µM
Nc1ncnc2c1ccn2[C@H]1CC[C@@H](CO)C1,MTS,>500 µM

Two numbers with a dash give a range or band. Rows are shuffled and stem from different studies. An empty or dashed field is not shown.